Data as given in PubChem BioAssay AID1259414 (Drosophila RNAi Screening Center, 2018)
In all, the deposit lists about 24,000 reagents; shown is an unselected part of those with a known target gene and a result. In the full data, about 1,210 (5%) got an active call. 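Inactive calls also include excluded dsRNAs with several or no targets, genes unexpressed in JW18, and well A1, regardless of score.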 A plus sign joins genes that one reagent is predicted to hit. Reagent sequences are not shown.

- Screen: 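Fly genes that alter Wolbachia amount inside host cells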 (primary screen)
- System: Drosophila JW18 cells infected with Wolbachia
- Knock-down reagent: long dsRNA against Drosophila genes, 0.25 µg dsRNA per well of a 384-well plate
- Time to read-out: 5 days
- Challenge: cells persistently infected with Wolbachia before knock-down; no added drug
- Read-out: 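Imaged fluorescence in situ signal for Wolbachia 23S rRNA per DAPI-counted host cell, given as a robust z-score within each plate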
- Scale: Wolbachia per cell robust z: higher = more Wolbachia per host cell than the plate typical
- Active means: 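Active if absolute robust z reaches 1.5 in two or more of three replicates, leaving out multi- or no-target dsRNAs, genes unexpressed in JW18 and A1 wells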

Gene	DRSC id	Wolbachia per cell robust z, rep 1	Wolbachia per cell robust z, rep 2	Wolbachia per cell robust z, rep 3	outcome
AttD	DRSC16272	-0.0733	0.716	-0.315	inactive
CG7737	DRSC07033	0.629	1.59	-0.269	inactive
cib	DRSC18660	-1.17	0.00881	-1.25	inactive
CG31099	DRSC14252	0.441	0.146	-0.06	inactive
CG31099	DRSC23973	-0.461	0.569	-0.606	inactive
CG30384	DRSC06032	0.456	-1.11	0.555	inactive
CG13589	DRSC04225	-0.337	-4.99	-2.07	inactive
CG13589	DRSC26885	0.395	1.35	-0.181	inactive
CG32214	DRSC09613	-2.05	-2.59	-2.42	inactive
CG7564	DRSC10880	0.326	0.0324	-0.194	inactive
CG7564	DRSC28225	0.665	-0.0721	-0.571	inactive
Task7	DRSC16477	1.4	1.06	0.211	inactive
Task7	DRSC26662	-0.379	-2.16	-2.24	inactive
CG10126	DRSC14191	-1.91	-0.925	-0.941	inactive
CG1090	DRSC12150	-0.901	0.441	0.516	inactive
CG1090	DRSC21604	-0.00728	0.374	0.599	inactive

Records listed so far whose target name starts with T or t:
Gene	DRSC id	Wolbachia per cell robust z, rep 1	Wolbachia per cell robust z, rep 2	Wolbachia per cell robust z, rep 3	outcome
Task7	DRSC16477	1.4	1.06	0.211	inactive
Task7	DRSC26662	-0.379	-2.16	-2.24	inactive

The results go on:
Gene	DRSC id	Wolbachia per cell robust z, rep 1	Wolbachia per cell robust z, rep 2	Wolbachia per cell robust z, rep 3	outcome
trbl	DRSC11901	-1.17	-1.02	-0.928	inactive
CG18262	DRSC18149	-1.27	1.27	-1.08	inactive
CG18262	DRSC24242	-0.569	1.23	0.234	inactive
CG11560	DRSC09843	0.157	-0.168	-1.52	inactive
CG11560	DRSC27017	-0.0511	0.0239	0.0857	inactive
Strn-Mlck	DRSC05032	-1.67	-0.0695	-0.509	inactive
Strn-Mlck	DRSC06571	0.336	-1.07	-0.43	inactive
Strn-Mlck	DRSC07471	0.438	-0.897	-0.669	inactive
CG15198	DRSC19645	-0.276	-2.33	-1.26	inactive
Ir76a + CG14102	DRSC38737	-0.972	0.423	0.532	inactive
Mon1	DRSC00336	-0.446	-0.839	-0.512	inactive
Mon1	DRSC26726	0.494	0.623	1.93	inactive
